Legend:
gp120 MN (X4) [1] = biological target: T1, gp120 MN (X4) (Human immunodeficiency virus type 1 group M subtype B, UniProt P05877); type: binding, HIV; conditions: sCD4-coated surface (FIG. 5E)
T1 construct: Two different gp120 were used, originating from a type X4 isolate (gp120 MN)
Method: (§1) Two different gp120 were used, originating from a type X4 isolate (gp120 MN) and a type R5 isolate (gp120 YU2). The capacity of different molecules to inhibit gp120 interactions with various receptors or co-receptors is measured by surface plasmonic resonance (Biacore).
(§2) In another set of experiments, sCD4 is coated on the surface, and gp120 alone (grey line) or pre-incubated with the compounds to be tested are injected onto these surfaces (FIGS. 5E and 5H). The interaction signal between gp120 and sCD4 is measured as a function of time.

HIV-1 SF162 (B-R5) = assay: Antiviral assay on clinical isolate in PHA-P-activated PBMCs, RT activity (Example 4); type: cell-based; conditions: clade-tropism B-R5; mean ± s.d. of triplicate
Text: (§3) The antiviral assay was extended to a series of more clinically relevant primary strains, including 92UG029, SF162, 92US723, 96USHIPS4, 92HT599 and 98IN017.
(§4) Phytohemagglutinin (PHA)-P-activated PBMCs were infected either with the reference lymphotropic HIV-1/LAI strain (Barre-Sinoussi, et al., 1983) or with the reference macrophage-tropic HIV-1/Ba-L strain (Gartner, et al., 1986). These viruses were amplified in vitro with PHA-P-activated blood mononuclear cells. Viral stocks (including clinical isolates) were titrated using PHA-P-activated PBMCs, and 50% tissue culture infectious doses (TCID50) were calculated using Kärber's formula (Kärber, 1931). Viruses (125 TCID50) were incubated for 30 min with five concentrations (1:5 dilutions between 500 nM and 320 pM) of each of the molecules to be tested and added to 150 000 PBMCs (m.o.i.˜0.001). Cell supernatants were collected at day 7 post-infection and stored at −20° C. In some cases, the compounds were added to the cells prior to viral challenge. Viral replication was measured by quantifying reverse transcriptase (RT) activity in the cell culture supernatants using the Lenti RT Activity Kit (Cavisi) and AZT was used as reference anti-HIV-1 molecule. In parallel, cytotoxicity was evaluated on day 7 in uninfected PHA-P-activated PBMC using a colorimetric methyl-tetrazolium salt (MTS/PMS) assay (Promega). Experiments were performed in triplicate and 50, 70 and 90% effective doses (ED) were calculated using SoftMaxPro software.

HIV-1 92HT599 (B-X4) = assay: as above; type: cell-based; conditions: clade-tropism B-X4; mean ± s.d. of triplicate
Text: as §3, §4

HIV-1 92US723 (B-R5/X4) = assay: as above; type: cell-based; conditions: clade-tropism B-R5/X4; mean ± s.d. of triplicate
Text: as §3, §4

HIV-1 98IN017 (C-X4) = assay: as above; type: cell-based; conditions: clade-tropism C-X4; mean ± s.d. of triplicate
Text: as §3, §4

[2] = tested on: HIV-1 96USHIPS4 (B-R5/X4); assay: as above; type: cell-based; conditions: clade-tropism B-R5/X4; mean ± s.d. of triplicate
Text: as §3, §4

HIV-1 92UG029 (A-X4) = assay: as above; type: cell-based; conditions: clade-tropism A-X4; mean ± s.d. of triplicate
Text: as §3, §4

gp120 YU2 (R5) = biological target: T2, gp120 YU2 (R5) (Human immunodeficiency virus type 1 group M subtype B, UniProt P35961); assay: Biacore (SPR): gp120 YU2 binding to sCD4-coated surface; design: species or system HIV; conditions: sCD4-coated surface (FIG. 5H)
T2 construct: Two different gp120 were used
Method: as §1, §2

R5-tropic HIV-1/Ba-L = assay: Antiviral assay in PHA-P-activated PBMC, RT activity in supernatant at day 7 (Example 3); type: cell-based; conditions: mean of triplicate; for ED70 VIH-1/Ba-L(R5) Average: effective dose to inhibit 70% of HIV-1 replication; for ED90 VIH-1/Ba-L(R5) Average: effective dose to inhibit 90% of HIV-1 replication
Method: Briefly, the X4-tropic HIV-1-LAI (Barre-Sinoussi, Science 220, 868-71, 1983) or the R5-tropic HIV-1/Ba-L (Gartner et al, Science 233, 215-9, 1986) strains were amplified and titrated in vitro on Phytohemaglutinin-P (PHA-P)-activated peripheral blood mononuclear cells (PBMC). Tissue culture infectious doses were calculated using Kärber's formula (Kärber, Arch. Exp. Path. Pharmak. 162, 480-483, 1931). […] Drugs were maintained throughout the culture, and cell supernatants were collected at day 7 post-infection and stored at −20° C. Azidothymidine (AZT) was used in these experiments as an internal control. Viral replication was measured by quantifying reverse transcriptase (RT) activity in cell culture supernatants using the RetroSys HIV RT kit (Innovagen). In parallel, cytotoxicity of the samples was evaluated in uninfected PHA-P-activated PBMC by a methyltetrazolium salt (MTT) assay on day 7. Experiments were performed in triplicate and 50, 70 and 90% effective doses and cytotoxic doses were calculated using SoftMaxPro software.
Molecules and viruses were maintained throughout the culture, and cell supernatants were collected at day 7 post-infection from which reverse transcriptase activity was quantified. Experiments were performed in triplicate and 50, 70 and 90% effective doses (ED), in nM (±S.D.) were calculated using SoftMaxPro software.

LAI HIV-1 = assay: Antiviral assay against LAI HIV-1, compounds preincubated with cells or with viruses (Example 4, Table 7); type: cell-based; conditions: mean ± s.d. of triplicate; for ED70 LAI HIV-1, Pre-treated cells / ED90 LAI HIV-1, Pre-treated cells: compounds preincubated with the cells; for ED70 LAI HIV-1, Pre-treated viruses / ED90 LAI HIV-1, Pre-treated viruses: compounds preincubated with the viruses
Method: as §4
Indeed, addition of the molecule either to the cells, prior to the viral challenge or to the virus prior to the cell infection return, identical results (cf. table 7).

gp120 MN (X4) [3] = biological target: T1, gp120 MN (X4); type: binding, HIV; conditions: for mAb17b binding to gp120 MN(X4)-coated surface pretreated with the compound: 100 nM compound, mAb17b 15 μg/ml (FIG. 5A-C); for binding of gp120 MN in complex with the compound to mAb17b-coated surface: mAb17b-coated surface (FIG. 5D)
Method: as §1
To do this, proteins (in this case gp120 envelop proteins) can be immobilized on the surface of a biosensor (Sensorchip CM 4 Biacore) in accordance with the described procedure (Vives et al. J. Biol. Chem. 279, 54327-54333, 2005).
The interaction signal between gp120 and mAb17b is measured as a function of time.

CC(C)C[C@@H]1NC(=O)CNC(=O)[C@H](CC(C)C)NC(=O)[C@H](CO)NC(=O)[C@H](CO)NC(=O)[C@@H]2CSSC[C@@H](C(=O)N[C@H](C(N)=O)C(C)C)NC(=O)[C@H](C)NC(=O)[C@@H]3CSSC[C@H](NC(=O)[C@H](CCCCN)NC(=O)[C@H](Cc4c[nH]cn4)NC(=O)[C@H](CC(C)C)NC(=O)[C@H](CC(N)=O)NC(=O)CCSSC[C@H](NC(=O)[C@H](CCCNC(=N)N)NC(=O)CNC(=O)[C@H](CC(C)C)NC1=O)C(=O)N[C@@H](C)C(=O)NCC(=O)N[C@@H](CO)C(=O)N[C@@H](Cc1ccc(-c4ccccc4)cc1)C(=O)N3)C(=O)N[C@@H](CCC(N)=O)C(=O)N[C@@H](CC(C)C)C(=O)N[C@@H](CCCNC(=N)N)C(=O)N2 [mCD4, reference compound]
binding of gp120 MN in complex with the compound to sCD4-coated surface (gp120 MN (X4) [1]): partially inhibited
ED70 SF162 (HIV-1 SF162 (B-R5)): 0.352 ± 0.105 µM
ED90 SF162 (HIV-1 SF162 (B-R5)): >0.5 µM
ED70 92HT599 (HIV-1 92HT599 (B-X4)): >0.5 µM
ED90 92HT599 (HIV-1 92HT599 (B-X4)): >0.5 µM
ED70 92US723 (HIV-1 92US723 (B-R5/X4)): 0.034 ± 0.01 µM
ED90 92US723 (HIV-1 92US723 (B-R5/X4)): 0.052 ± 0.022 µM
ED70 98IN017 (HIV-1 98IN017 (C-X4)): >0.5 µM
ED90 98IN017 (HIV-1 98IN017 (C-X4)): >0.5 µM
ED70 96USHIPS4 [2]: >0.5 µM
ED90 96USHIPS4 [2]: >0.5 µM
ED70 92UG029 (HIV-1 92UG029 (A-X4)): >0.5 µM
ED90 92UG029 (HIV-1 92UG029 (A-X4)): >0.5 µM
binding of gp120 YU2 in complex with the compound to sCD4-coated surface (gp120 YU2 (R5)): partially inhibited
ED70 VIH-1/Ba-L(R5) Average (R5-tropic HIV-1/Ba-L): >0.5 µM
ED90 VIH-1/Ba-L(R5) Average (R5-tropic HIV-1/Ba-L): >0.5 µM
ED70 LAI HIV-1, Pre-treated cells (LAI HIV-1): >0.5 µM
ED90 LAI HIV-1, Pre-treated cells (LAI HIV-1): >0.5 µM
ED70 LAI HIV-1, Pre-treated viruses (LAI HIV-1): 0.474 ± 0.027 µM
ED90 LAI HIV-1, Pre-treated viruses (LAI HIV-1): >0.5 µM
mAb17b binding to gp120 MN(X4)-coated surface pretreated with the compound (gp120 MN (X4) [3]): binds and unmasks the CD4i epitope
binding of gp120 MN in complex with the compound to mAb17b-coated surface (gp120 MN (X4) [3]): binding occurs

CC(C)C[C@@H]1NC(=O)CNC(=O)[C@H](CC(C)C)NC(=O)[C@H](CO)NC(=O)[C@H](CO)NC(=O)[C@@H]2CSSC[C@@H](C(=O)N[C@H](C(N)=O)C(C)C)NC(=O)[C@H](C)NC(=O)[C@@H]3CSSC[C@H](NC(=O)[C@H](CCCCNC(=O)CCOCCOCCNC(=O)CCN4C(=O)CC(SCCC(=O)NCCCC(=O)N[C@@H](CO)C(=O)N[C@@H](Cc5ccc(OS(=O)(=O)O)cc5)C(=O)N[C@@H](CC(=O)O)C(=O)N[C@@H](Cc5ccc(OS(=O)(=O)O)cc5)C(=O)N[C@@H](CO)C(=O)N[C@@H](Cc5ccc(OS(=O)(=O)O)cc5)C(=O)N[C@@H](CC(=O)O)C(=O)N[C@@H](Cc5ccc(OS(=O)(=O)O)cc5)C(=O)N[C@@H](CO)C(=O)N[C@@H](Cc5ccc(OS(=O)(=O)O)cc5)C(=O)N[C@@H](CC(=O)O)C(=O)N[C@@H](Cc5ccc(OS(=O)(=O)O)cc5)C(=O)N[C@@H](CO)C(=O)O)C4=O)NC(=O)[C@H](Cc4c[nH]cn4)NC(=O)[C@H](CC(C)C)NC(=O)[C@H](CC(N)=O)NC(=O)CCSSC[C@H](NC(=O)[C@H](CCCNC(=N)N)NC(=O)CNC(=O)[C@H](CC(C)C)NC1=O)C(=O)N[C@@H](C)C(=O)NCC(=O)N[C@@H](CO)C(=O)N[C@@H](Cc1ccc(-c4ccccc4)cc1)C(=O)N3)C(=O)N[C@@H](CCC(N)=O)C(=O)N[C@@H](CC(C)C)C(=O)N[C@@H](CCCNC(=N)N)C(=O)N2 (some centres unmarked) [mCD4-P3YSO3]
binding of gp120 MN in complex with the compound to sCD4-coated surface (gp120 MN (X4) [1]): fully inhibited
ED70 SF162 (HIV-1 SF162 (B-R5)): 0.0004 ± 0.0003 µM
ED90 SF162 (HIV-1 SF162 (B-R5)): 0.0009 ± 0.0002 µM
ED70 92HT599 (HIV-1 92HT599 (B-X4)): 0.0013 ± 0.0009 µM
ED90 92HT599 (HIV-1 92HT599 (B-X4)): 0.0035 ± 0 µM
ED70 92US723 (HIV-1 92US723 (B-R5/X4)): 0.00035 ± 0.0002 µM
ED90 92US723 (HIV-1 92US723 (B-R5/X4)): 0.00045 ± 0.0002 µM
ED70 98IN017 (HIV-1 98IN017 (C-X4)): 0.147 ± 0.009 µM
ED90 98IN017 (HIV-1 98IN017 (C-X4)): >0.5 µM
ED70 96USHIPS4 [2]: 0.0016 ± 0.0012 µM
ED90 96USHIPS4 [2]: 0.003 ± 0.0014 µM
ED70 92UG029 (HIV-1 92UG029 (A-X4)): 0.0003 ± 0.0001 µM
ED90 92UG029 (HIV-1 92UG029 (A-X4)): 0.0008 ± 0.0003 µM
binding of gp120 YU2 in complex with the compound to sCD4-coated surface (gp120 YU2 (R5)): fully inhibited
ED70 VIH-1/Ba-L(R5) Average (R5-tropic HIV-1/Ba-L): 0.0031 µM
ED90 VIH-1/Ba-L(R5) Average (R5-tropic HIV-1/Ba-L): 0.02 µM
ED70 LAI HIV-1, Pre-treated cells (LAI HIV-1): 0.0006 ± 0.0002 µM
ED90 LAI HIV-1, Pre-treated cells (LAI HIV-1): 0.001 ± 0.0002 µM
ED70 LAI HIV-1, Pre-treated viruses (LAI HIV-1): 0.0007 ± 0.0003 µM
ED90 LAI HIV-1, Pre-treated viruses (LAI HIV-1): 0.0009 ± 0.0002 µM
mAb17b binding to gp120 MN(X4)-coated surface pretreated with the compound (gp120 MN (X4) [3]): fully inhibits
binding of gp120 MN in complex with the compound to mAb17b-coated surface (gp120 MN (X4) [3]): fully inhibited
